## Sequence variants of PSTVd stem 15 after infection

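A pool of all variants was put on leaves of three Nicotiana benthamiana plants. Samples came from the inoculated region at 5 days, the leaf margin at 10 and upper systemic leaves at 12.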

Region: stem 15 of PSTVd (intermediate strain), upper and lower strand joined, each 5' to 3', the first 9 letters being the upper strand. Wild type: CUGGAGCGAUCGCUUCGG. Varied positions (N): CUGGAGCGAUNGNNUNNG.

Numbers give reads per thousand; 0 = not seen among the reads, higher = more abundant.
Each value is the mean of three plants.
"Pool" is the share in the plasmid pool used as inoculum, on the same scale.
The inoculated region was read from the minus strand, the other sites from the plus strand.
IR is the inoculated region, LM the leaf margin, Sys the systemic leaves.
Samples held 36,693 to 63,082 reads, so the smallest values rest on one or two reads.

sequence,pool,IR,LM,Sys
AUGGAGCGAUAGCAUUCG,0.0162,0,0,0
CAGGAGCGAUUGAGUUGG,0.0162,0,0,0
CAGGAGCGAUUGAUUAUG,0.0162,0,0,0
CAGGAGCGAUUGCGUGCG,0.0162,0,0,0
CUGGAGCGAUAGAAUCAG,0.921,0.326,0.0807,0
CUGGAGCGAUAGACUGCG,0.824,0.226,0.0325,0
CUGGAGCGAUAGAGUGGG,0.792,0.247,0.0197,0
CUGGAGCGAUAGAUUCGG,0.857,0.296,0.0548,0.0132
CUGGAGCGAUAGCAUCAG,0.792,0.253,0.0367,0
CUGGAGCGAUAGCCUACG,0.986,0.255,0.0341,0
CUGGAGCGAUAGGAUCUG,0.776,0.267,0.0235,0
CUGGAGCGAUAGGCUUCG,0.630,0.232,0.0579,0
CUGGAGCGAUAGGCUUGG,0.743,0.303,0.0456,0
CUGGAGCGAUAGGUUCGG,0.792,0.267,0.0159,0
CUGGAGCGAUAGUGUUGG,0.808,0.274,0.0572,0
CUGGAGCGAUAGUUUGGG,0.743,0.293,0.0425,0
CUGGAGCGAUAGUUUUCG,0.760,0.197,0.0488,0
CUGGAGCGAUCGAUUAAG,0.760,0.218,0.0265,0
CUGGAGCGAUCGCAUCUG,0.986,0.388,0.216,0
CUGGAGCGAUCGCAUUCG,0.937,0.318,0.0419,0
CUGGAGCGAUCGCCUGCG,0.840,0.265,0.0726,0
CUGGAGCGAUCGCGUACG,0.873,0.196,0.0197,0
CUGGAGCGAUCGGCUCCG,0.760,0.242,0.0282,0
CUGGAGCGAUCGGCUCGG,1.02,0.253,0.0244,0
CUGGAGCGAUCGGGUUGG,0.905,0.245,0.0175,0
CUGGAGCGAUCGGUUCAG,1.20,0.261,0.0191,0
CUGGAGCGAUCGUAUAAG,0.905,0.288,0.0244,0
CUGGAGCGAUCGUAUGAG,0.614,0.324,0.0547,0
CUGGAGCGAUCGUGUAUG,0.792,0.329,0.00689,0
CUGGAGCGAUCGUGUCAG,0.905,0.336,0.0349,0
CUGGAGCGAUCGUGUGCG,0.921,0.241,0.0334,0
CUGGAGCGAUCGUGUUCG,1.00,0.622,0.0425,0
CUGGAGCGAUCUCUUCGG,0.0646,0.310,0.295,0.667
CUGGAGCGAUGGAAUGGG,0.857,0.278,0.0260,0
CUGGAGCGAUGGAGUAGG,0.824,0.300,0.0450,0
CUGGAGCGAUGGAGUGCG,0.873,0.283,0.0213,0
CUGGAGCGAUGGCGUAAG,1.08,0.229,0.0244,0
CUGGAGCGAUGGCGUAGG,0.840,0.266,0.0839,0
CUGGAGCGAUGGCGUAUG,0.905,0.281,0.0372,0
CUGGAGCGAUGGCGUGUG,0.857,0.289,0.0440,0
CUGGAGCGAUGGCUUCUG,1.00,0.325,0.0388,0
CUGGAGCGAUGGCUUUGG,0.679,0.248,0.0435,0
CUGGAGCGAUGGGCUACG,0.776,0.344,0.0908,0
CUGGAGCGAUGGGCUGAG,0.598,0.283,0.0159,0
CUGGAGCGAUGGGGUAUG,1.65,0.649,0.0191,0
CUGGAGCGAUGGGGUCGG,0.824,0.288,0.0547,0
CUGGAGCGAUGGGUUCGC,0.776,0.487,0,0.0133
CUGGAGCGAUGGGUUUGG,0.711,0.272,0.0594,0
CUGGAGCGAUGGUAUAAG,0.954,0.310,0.0503,0
CUGGAGCGAUGGUCUUGG,0.760,1.67,0.0441,0
CUGGAGCGAUGGUGUCUG,0.873,0.323,0.0419,0
CUGGAGCGAUGGUGUUCG,0.646,0.355,0.0403,0
CUGGAGCGAUGGUUUGGG,0.840,0.315,0.0334,0
CUGGAGCGAUUGAAUUCU,0.857,0.719,0,0.00664
CUGGAGCGAUUGACUAUG,0.921,0.255,0.0616,0
CUGGAGCGAUUGACUGGG,0.954,0.265,0.0345,0
CUGGAGCGAUUGAGUGGG,1.02,0.290,0.0227,0
CUGGAGCGAUUGAGUUUG,0.905,0.274,0.0526,0
CUGGAGCGAUUGCCUCGG,0.889,0.312,0.0664,0
CUGGAGCGAUUGCGUACG,0.663,0.333,0.0329,0
CUGGAGCGAUUGCGUCGG,0.824,0.261,0.00689,0
CUGGAGCGAUUGCUUGAG,1.62,1.07,0.0557,0
CUGGAGCGAUUGGGUGUG,0.743,0.302,0.0106,0
CUGGAGCGAUUGUAUUCG,1.00,1.50,0.391,0.407
CUGGAGCGAUUGUCUUAG,0.663,1.57,0.398,0.360
CUGGAGCGAUUGUCUUGG,0.792,1.59,0.680,0.572
CUGGAGCUAUAGGCUGGG,0.0162,0.00620,0,0
CUGUAGCGAUCGCAUCGG,0.0162,0,0,0

Excerpt, the final 4 entries:

sequence,pool,IR,LM,Sys
CUGGAGCGAUUGUCUUAG,0.663,1.57,0.398,0.360
CUGGAGCGAUUGUCUUGG,0.792,1.59,0.680,0.572
CUGGAGCUAUAGGCUGGG,0.0162,0.00620,0,0
CUGUAGCGAUCGCAUCGG,0.0162,0,0,0

Sequences that differ at fixed positions probably stem from PCR or sequencing errors, and defective variants can be carried along by functional ones.
For reference, wild type rose from 10.2 per thousand in the pool to 285, 367, 312 (inoculated region), 785, 865, 782 (leaf margin) and 854, 898, 915 (systemic leaves).

From the data files of Wu et al. 2024, doi:10.1371/journal.ppat.1012142.